Measurements published in ChEMBL document CHEMBL4371047, “Effect of α-Methoxy Substitution on the Anti-HIV Activity of Dihydropyrimidin-4(3 H)-ones” (J Med Chem, 2019).

Target: Human immunodeficiency virus type 1 reverse transcriptase (Human immunodeficiency virus 1) (UniProt Q72547)

SMILES: CCC(C)Sc1nc(C(C)c2c(F)cccc2Cl)c(C)c(=O)[nH]1 (stereo unspecified)
- ID50: 0.3 nM
